Potato spindle tuber viroid, stem 15: variant abundance in plants

Values reported by Wu et al. 2024 (doi:10.1371/journal.ppat.1012142).

The pool varies stem 15 of the PSTVd intermediate strain in the pattern CUGGAGCGAUNGNNUNNG; wild type is CUGGAGCGAUCGCUUCGG (upper and lower strand joined, each 5' to 3', the first 9 letters being the upper strand).

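Three N. benthamiana plants were inoculated with the whole mutant pool. Samples came from the inoculated region at 5 days, the leaf margin at 10 and upper systemic leaves at 12.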

Numbers give reads per thousand; 0 = not seen among the reads, higher = more abundant. Each value is the mean of three plants. "Pool" is the share in the plasmid pool used as inoculum, on the same scale. The inoculated region was read from the minus strand, the other sites from the plus strand. The authors trace changes outside the varied positions to PCR and sequencing errors or to mutation in the plant; presence does not show that a variant is infectious alone. Wild type was 10.2 per thousand in the pool and the most common sequence in every sample (inoculated region 285, 367, 312; leaf margin 785, 865, 782; systemic leaves 854, 898, 915). Samples held 36,693 to 63,082 reads, so the smallest values rest on one or two reads.

| sequence | pool | inoculated region | leaf margin | systemic leaves |
|---|---|---|---|---|
| CUGGAGCGAUCGCUUCUG | 1.07 | 0.651 | 0.409 | 0.219 |
| CUGGAGCGAUUGAUUACG | 0.808 | 0.269 | 0.0500 | 0 |
| CUGGAGCGAUCGAGUUAG | 0.873 | 0.315 | 0.0472 | 0 |
| CUGGAGCGAUGGUUUCGG | 0.776 | 0.284 | 0.0595 | 0 |
| CAGGAGCGAUUGAAUCAG | 0.0162 | 0.00652 | 0 | 0 |
| CUGGAGCGAUGGUUUGAG | 0.857 | 0.286 | 0.0378 | 0 |
| CUGGAGCGAUUGGAUGUG | 0.905 | 0.276 | 0.00689 | 0 |
| CUGGAGCGAUUGCGUGCG | 0.857 | 0.284 | 0.0298 | 0 |
| CUGGAGCGAUCGUAUCAG | 0.921 | 0.255 | 0.0516 | 0 |
| CUGGAGCGAUCGCUUACG | 0.808 | 0.281 | 0.0472 | 0 |
| CUGGGGCGAUAGGUUCGG | 0.0323 | 0 | 0 | 0 |
| CUGGAGCGAUUGAGUUUG | 0.905 | 0.274 | 0.0526 | 0 |
| CUGGAGCGAUUGCGUGUG | 0.792 | 0.276 | 0.0282 | 0 |
| CUGGAGCGAUUGCUUGCG | 0.743 | 0.258 | 0.0403 | 0 |
| CUGGAGCGAUGGCAUUUG | 0.808 | 0.262 | 0.0419 | 0 |
| CUGGAGCGAUGGUAUAAG | 0.954 | 0.310 | 0.0503 | 0 |
| CUGGAGCGAUAGAGUCCG | 1.00 | 0.275 | 0.0302 | 0 |
| CUGGAGCGAUGGGGUUGG | 0.905 | 0.210 | 0.0540 | 0 |
| AUGGAGCGAUUGGAUAAG | 0.0162 | 0 | 0 | 0 |
| CUGGAGCGAUCGUUUAGG | 0.711 | 0.353 | 0.0251 | 0 |
| CUGGAGCGAUUGGAUAGG | 0.824 | 0.292 | 0.0503 | 0 |
| CUGGAGCGAUAGCAUCUG | 0.824 | 0.266 | 0.00908 | 0 |
| CUGGAGCGAUGGCGUGGG | 0.954 | 0.259 | 0.0441 | 0 |
| CUGGAGCGAUGGUAUUCG | 1.05 | 0.515 | 0.0503 | 0 |
| CUGGAGCGAUUGUCUGCG | 0.743 | 1.40 | 0.0329 | 0 |
| CUGGAGCGAUGGCUUCAG | 1.15 | 0.310 | 0.0616 | 0 |
| CUGGAGCGAUAGACUGCG | 0.824 | 0.226 | 0.0325 | 0 |
| CUGGAGCGAUUGCGUCCG | 0.905 | 0.177 | 0.0488 | 0 |
| CUGGAGCGAUGGACUCGG | 0.905 | 0.339 | 0.0579 | 0 |
| CUGGAGCGAUUGCAUCGG | 0.954 | 0.178 | 0.0229 | 0 |
| CUGGAGCGAUUGCUUGUG | 1.00 | 0.382 | 0.0434 | 0 |
| CUGGAGCGAUCGUAUCUG | 0.808 | 0.220 | 0.0122 | 0 |
| CUGGAGCGAUGGCGUUAG | 1.00 | 0.547 | 0.0394 | 0 |
| CUGGAGCGAUGGAAUGAG | 1.33 | 0.626 | 0.0525 | 0 |
| CUGGAGCGAUCGCCUGGG | 0.792 | 0.266 | 0.0191 | 0 |
| CUGGAGCGAUUGGGUAGG | 0.905 | 0.247 | 0.0320 | 0 |
| CUGGAGCGAUGGCAUUAG | 0.937 | 0.260 | 0.0522 | 0 |
| CUGGAGCGAUAGCGUCGG | 0.727 | 0.245 | 0.0403 | 0 |
| CUGGAGCGAUUGGUUGCG | 0.760 | 0.304 | 0.0302 | 0 |
| CUGGAGCGAUUGUAUUGG | 3.04 | 3.47 | 0.741 | 0.597 |
| CGGGAGCGAUCGUCUUAG | 0.0162 | 0 | 0 | 0 |
| CUGGAGCGAUUGCAUGAG | 1.03 | 0.492 | 0.0350 | 0 |
| CUGGAGCGAUCGAUUCCG | 1.42 | 0.454 | 0.0607 | 0 |
| CUGGAGCGAUCGGGUACG | 0.776 | 0.275 | 0.0106 | 0 |
| CAGGAGCGAUGGGUUCGG | 0.0162 | 0 | 0 | 0 |
| CUGGAGCGAUUGCUUGAG | 1.62 | 1.07 | 0.0557 | 0 |
| CUGGAGCGAUCACUUCGG | 0.339 | 0.687 | 0.726 | 1.03 |
| CUGGAGCGAUAGCAUUGG | 0.808 | 0.292 | 0.0191 | 0 |
| CUGGAGCGAUUGUAUUCG | 1.00 | 1.50 | 0.391 | 0.407 |
| CUGGAGCGAUCGCCUUCG | 0.776 | 0.273 | 0.0494 | 0 |
| AUGGAGCGAUCGCAUCUG | 0.0162 | 0 | 0 | 0 |
| CUGGAGCGAUGGAAUAUG | 0.857 | 0.289 | 0.0532 | 0 |
| CUGGAGCGAUGGGUUGGG | 1.83 | 0.610 | 0.0249 | 0.0133 |
| CUGGAGCGAUUGCUUAUG | 0.824 | 0.372 | 0.0334 | 0 |
| CUGGAGCGAUGGAAUCUG | 0.792 | 0.236 | 0.0647 | 0 |
| CUGGAGCGAUUGACUAAG | 0.970 | 1.66 | 0.433 | 0.413 |
| CUGGAGCAAUCGUUUACG | 0.0162 | 0 | 0 | 0 |
| CUGGAGCGAUUGUUUACG | 0.727 | 0.290 | 0.0345 | 0 |
| CUGGAGCGAUAGUUUCAG | 0.921 | 0.384 | 0.0519 | 0 |
| CUGGAGCGAUGGAUUAUG | 1.34 | 0.457 | 0.0685 | 0 |
| CUGGAGCGAUUGUAUGGG | 4.28 | 4.26 | 0.100 | 0.0265 |
| CUGGAGCGAUGGUGUCGG | 2.36 | 1.73 | 0.0503 | 0.00664 |
| CUGGAGCGAUGGAAUGCG | 0.873 | 0.261 | 0.0175 | 0 |
| CUGGAGCGAUGGCAUCUG | 0.760 | 0.287 | 0.0138 | 0 |
| CUGGAGCGAUCGCGUUGG | 0.711 | 0.284 | 0.0298 | 0 |

The opening 8 entries, copied out:

| sequence | pool | inoculated region | leaf margin | systemic leaves |
|---|---|---|---|---|
| CUGGAGCGAUCGCUUCUG | 1.07 | 0.651 | 0.409 | 0.219 |
| CUGGAGCGAUUGAUUACG | 0.808 | 0.269 | 0.0500 | 0 |
| CUGGAGCGAUCGAGUUAG | 0.873 | 0.315 | 0.0472 | 0 |
| CUGGAGCGAUGGUUUCGG | 0.776 | 0.284 | 0.0595 | 0 |
| CAGGAGCGAUUGAAUCAG | 0.0162 | 0.00652 | 0 | 0 |
| CUGGAGCGAUGGUUUGAG | 0.857 | 0.286 | 0.0378 | 0 |
| CUGGAGCGAUUGGAUGUG | 0.905 | 0.276 | 0.00689 | 0 |
| CUGGAGCGAUUGCGUGCG | 0.857 | 0.284 | 0.0298 | 0 |